Results of unrelated studies side by side (data: NIAID ChemDB).

Shared fields: growth or infection tests; agent: Varicella zoster virus

Inhibition is in % at the dose shown (toxicity tests: loss of growth or viability).

{"smiles": "O=c1[nH]c(=O)n([C@@H]2O[C@H](CO)[C@@H](O)[C@@H]2O)cc1/C=C/Cl", "strain": "Asahikawa", "cell line": "HELF", "method": "plaque count", "read-out": "inhibition", "tested at": "0.01 µg/mL", "value": "100%"}
{"smiles": "Nc1nc2c(ncn2CCC(CO)CO)c(=O)[nH]1", "strain": "Oka PMEA-resistant", "cell line": "HEL", "method": "cytopathic effect", "read-out": "EC50", "value": "19.5 µM"}
{"smiles": "O=C(NCc1ccc(Cl)cc1)c1c[nH]c2ccc(C#CCO)cc2c1=O", "strain": "KLE", "method": "plaque count", "read-out": "EC50", "value": "0.2 µM"}
{"smiles": "CCc1cn([C@@H]2O[C@H](CO)[C@@H](O)[C@@H]2O)c(=O)[nH]c1=O", "strain": "KANNO", "cell line": "HELF", "method": "plaque count", "read-out": "inhibition", "tested at": "100 µg/mL", "value": "29%"}
{"smiles": "Nc1nc(N)c2ncn(CCOCP(=O)(O)O)c2n1", "strain": "OKA (WILD TYPE)", "cell line": "HEL", "method": "cytopathic effect", "read-out": "EC50", "value": "2.3 µM"}
{"smiles": "Cn1cc(C(=O)NCc2ccc(Cl)cc2)c(=O)c2cc(CN3CCOCC3)ccc21", "strain": "CA varicella isolate", "cell line": "HFF", "method": "plaque count", "read-out": "EC50", "value": "0.5 µM"}
{"smiles": "O=C(O)CP(=O)(O)O", "strain": "Oka CF1742-resistant", "cell line": "HEL", "method": "cytopathic effect", "read-out": "EC50", "value": "51.7 µM"}
{"smiles": "COc1cc(OCc2ccccc2)c(NC(=S)Nc2ccc(NC(C)=O)cc2)cc1Cl", "strain": "ELLEN", "cell line": "HFF", "method": "ELISA", "read-out": "inhibition", "tested at": "10 µg/mL", "value": "105%"}
{"smiles": "O=c1[nH]c(=O)n([C@H]2C[C@H](O)[C@@H](CO)O2)cc1I", "read-out": "MIC", "value": "45 µg/mL"}
{"smiles": "O=c1[nH]c(=O)n([C@H]2C[C@H](O)[C@@H](CO)O2)cc1I", "strain": "KANNO", "cell line": "HELF", "method": "plaque count", "read-out": "inhibition", "tested at": "0.1 µg/mL", "value": "0%"}
{"smiles": "CCCCCCCCc1cc2cn([C@H]3C[C@H](O)[C@@H](CO)O3)c(=O)nc2o1", "strain": "OKA", "read-out": "EC50", "value": "0.008 µM"}
{"smiles": "Nc1nc2c(ncn2COCCO)c(=O)[nH]1", "strain": "KANNO", "cell line": "HELF", "method": "plaque count", "read-out": "inhibition", "tested at": "0.1 µg/mL", "value": "11%"}
{"smiles": "O=C(O)P(=O)(O)O", "strain": "Oka PMEA-resistant", "cell line": "HEL", "method": "cytopathic effect", "read-out": "EC50", "value": "234.1 µM"}
{"smiles": "C=Cc1cn([C@@H]2O[C@H](CO)[C@@H](O)[C@@H]2O)c(=O)[nH]c1=O", "strain": "YS", "cell line": "HELF", "method": "plaque count", "read-out": "inhibition", "tested at": "0.01 µg/mL", "value": "0%"}
{"smiles": "CC(=O)Nc1ccc(NC(=S)Nc2ccc(NC(=O)CN3CCCCC3)c(Cl)c2)cc1", "strain": "ELLEN", "cell line": "HFF", "method": "ELISA", "read-out": "inhibition", "tested at": "10 µg/mL", "value": "16%"}

For reference, 2 entries again:

| smiles | strain | cell line | method | read-out | tested at | value |
|---|---|---|---|---|---|---|
| Nc1nc(N)c2ncn(CCOCP(=O)(O)O)c2n1 | OKA (WILD TYPE) | HEL | cytopathic effect | EC50 | - | 2.3 µM |
| Nc1nc2c(ncn2COCCO)c(=O)[nH]1 | KANNO | HELF | plaque count | inhibition | 0.1 µg/mL | 11% |

ECn is the concentration giving n% inhibition of infection, replication or growth. An empty or dashed field is not shown. Neighbouring rows are from separate reports.